One substance from article PMC7521707, “Interaction between influenza A virus nucleoprotein and PB2 cap-binding domain is mediated by RNA” (2020) can be followed below.

This experiment deals with Influenza polymerase: myc-tagged PA, PB1 D446Y, PB2 K331A (Influenza A virus A/Hong Kong/156/97). The experiment can be described thus: co-IP.

“Influenza A virus nucleoprotein (NP), untagged, expressed from pcDNA-NP (natural protein)”: the decrease of NP co-immunoprecipitated against wild-type PB2 worked out at 50 % less.
